Measured values from several laboratories, pooled; numbers as filed in NIAID ChemDB.

Shared fields: whole-cell or culture tests; species: HIV-1; measure: fold resistance

Fold resistance: result on the changed form divided by that on wild type.

CCc1c(Sc2ccccn2)n(COCc2ccccc2)c(=O)[nH]c1=O ; changes: RT-Y181C ; strain or isolate: NL4-3 ; cells: CEM + CEM-SS ; method: cytopathic effect / XTT ; value: 69.4
O=c1[nH]cnc2c1ncn2[C@H]1CC[C@@H](CO)O1 ; changes: RT-D67N T69D L210W T215Y ; strain or isolate: JF20 (RT D67N T69D L210W T215Y) ; cells: HELA-CD4+ ; method: plaque count ; value: 1.5
Cc1c(Sc2ccccc2)n(COCCO)c(=O)[nH]c1=O ; changes: RT-Y181C ; strain or isolate: IIIB ; cells: CEM + CEM-SS ; method: cytopathic effect / XTT ; value: >18
Cc1ccnc2c1NC(=O)c1cccnc1N2C1CC1 ; changes: RT-D67G ; strain or isolate: HxB2D(RT-D67G) ; cells: MT-4 ; method: RT activity ; value: 0.5
Cc1occc1C(=S)Nc1ccc(Cl)c(/C=N/OC(C)(C)C)c1 ; changes: RT-A98G V108I ; strain or isolate: TIBO R82150-resistant (RT A98G V108I) ; cells: CEM + CEM-SS ; method: cytopathic effect / XTT ; value: 5.5
O=c1[nH]cnc2c1ncn2[C@H]1CC[C@@H](CO)O1 ; changes: RT-S68G Q151M T215Y ; strain or isolate: RT-68G 151M 215Y ; value: 2
Cc1cn([C@H]2C[C@H](F)[C@@H](CO)O2)c(=O)[nH]c1=O ; changes: RT-V75I F77L F116Y Q151M ; strain or isolate: GW908 AZT-resistant (RT V75I/F77L/F116Y/Q151M) ; cells: PBMC ; method: antigen ; value: 0.6
CC(C)(C)C(=O)c1sc(C(=O)NCCc2ccccc2)c(O)c1O ; changes: INTG-T66I S153Y ; value: 1
Cc1cn([C@H]2C=C[C@@H](CO)O2)c(=O)[nH]c1=O ; changes: RT-M41L D67N T69N K70R T215F K219E ; strain or isolate: 7324-1 NRTI resistant recombinant ; cells: PBMC ; method: RT activity ; value: 2.6
Cc1cn([C@H]2C[C@H](N=[N+]=[N-])[C@@H](CO)O2)c(=O)[nH]c1=O ; changes: RT-V75I F77L Q151M ; strain or isolate: Recombinant ; cells: PBMC ; method: p24 ; value: 0.02
O=c1[nH]cnc2c1ncn2[C@H]1CC[C@@H](CO)O1 ; changes: RT-D67G ; strain or isolate: HxB2D(RT-D67G) ; cells: CBMC ; method: RT activity ; value: 1.58
CC(C)Nc1cccnc1N1CCN(C(=O)c2cc3cc(NS(C)(=O)=O)ccc3[nH]2)CC1 ; changes: RT-T69N L74I Q151M M184V ; strain or isolate: LZ-07.96 (HXB2 RT T69N L74I Q151M M184V) ; cells: MT-4 ; method: cytopathic effect ; value: 2.5
CCNc1cccnc1N1CCN(C(=O)c2cc3cc(OC)ccc3[nH]2)CC1 ; changes: RT-Y188H ; strain or isolate: IIIB HEPT-resistant (RT Y188H) ; cells: CEM ; method: syncytia ; value: 17.5
C[C@H](Cn1cnc2c(N)ncnc21)OCP(=O)(O)O ; changes: RT-M184V ; strain or isolate: Recombinant ; cells: HeLa ; method: luciferase ; value: 1
C[C@H](Cn1cnc2c(N)ncnc21)OCP(=O)(O)O ; changes: T66I ; strain or isolate: HXB2 ; setting: pseudotyped ; cells: MT-2 ; method: recombinant virus assay / single cycle ; value: 1
Cc1cn([C@H]2C[C@H](N=[N+]=[N-])[C@@H](CO)O2)c(=O)[nH]c1=O ; changes: RT-A62T V118I M184V ; strain or isolate: Recombinant ; cells: HeLa ; method: luciferase ; value: 0.5
Nc1ccn([C@H]2C[C@H](O)[C@](CO)(CF)O2)c(=O)n1 ; changes: RT ; strain or isolate: RTMDR ; cells: HeLa ; method: β-galactosidase ; value: 0.848
COc1ccc(S(=O)(=O)N(CC(C)C)C[C@@H](O)[C@H](Cc2ccccc2)NC(=O)O[C@H]2CCO[C@H]3OCC[C@H]32)cc1 ; changes: L10I I15V K20R L24I V32I M36I M46I L63P K70Q V82A I84V L89M ; strain or isolate: NL4-3 ; cells: MT-4 ; method: p24 / luminescence ; value: >227
CC(C)(C)C(=O)c1sc(C(=O)NCc2ccccc2)c(O)c1O ; changes: INTG-V151I ; value: 1
Cc1cn([C@H]2C[C@H](N=[N+]=[N-])[C@@H](CO)O2)c(=O)[nH]c1=O ; changes: RT-P236L ; strain or isolate: HEPT-resistant (RT P236L) ; cells: CEM + CEM-SS ; method: XTT ; value: 0.2
Nc1nc(NC2CC2)c2ncn([C@H]3C=C[C@@H](CO)C3)c2n1 ; changes: RT-M41L T69ins L74V M184V L210W T215Y ; strain or isolate: 52534-2 NRTI resistant recombinant ; cells: PBMC ; method: RT activity ; value: 22
CCOCn1c(Cc2ccccc2)c(CC)c(=O)[nH]c1=O ; changes: RT-K103N ; strain or isolate: IIIB TIBO R82913-resistant (RT K103N) ; cells: CEM ; method: syncytia ; value: 60
COC(=O)N[C@H](C(=O)N[C@@H](Cc1ccccc1)[C@@H](O)CN(Cc1ccc(-c2ccccn2)cc1)NC(=O)[C@@H](NC(=O)OC)C(C)(C)C)C(C)(C)C ; changes: L10I N37D G48V I54V L63P G73C I84V L90M ; strain or isolate: NL4-3 ; cells: MT-4 ; method: p24 / luminescence ; value: >213
Nc1nc(=O)n([C@H]2CO[C@@H](CO)S2)cc1F ; changes: RT-M184V ; strain or isolate: HXB2D (RT-M184V) ; cells: CBMC ; method: RT activity ; value: 2.94
O=c1[nH]cnc2c1ncn2[C@H]1CC[C@@H](CO)O1 ; changes: RT-M41L E44D D67N T69D Y118I M184V L210W T215Y ; strain or isolate: 4755-5 NRTI resistant recombinant ; cells: PBMC ; method: RT activity ; value: 2.4
Cc1cn([C@H]2C[C@H](N=[N+]=[N-])[C@@H](CO)O2)c(=O)[nH]c1=O ; changes: RT-T215Y ; strain or isolate: P035A (RT-T215Y) ; cells: HT4 + HT4-6C ; method: plaque count ; value: 56
Cc1cn([C@H]2C=C[C@@H](CO)O2)c(=O)[nH]c1=O ; changes: RT-F77L F116Y Q151M ; strain or isolate: FO-08.96 (HXB2 RT F77L F116Y Q151M) ; cells: MT-4 ; method: cytopathic effect ; value: >40
Cc1cc(C#N)cc(C)c1Oc1nc(Nc2ccc(C#N)cc2)ncc1SCC(=O)N1CCSCC1 ; changes: Y188L ; cells: MT-4 ; method: MTT ; value: 4.6
CC(C)OC(=O)OCOP(=O)(CO[C@H](C)Cn1cnc2c(N)ncnc21)OCOC(=O)OC(C)C ; changes: RT-M184V ; strain or isolate: M184V (3TC-resistant RT M184V) ; cells: MT-2 ; method: p24 ; value: 1.18
O=c1[nH]cnc2c1ncn2[C@H]1CC[C@@H](CO)O1 ; changes: RT-T69N L74I Q151M M184V ; strain or isolate: LZ-07.96 (HXB2 RT T69N L74I Q151M M184V) ; cells: MT-4 ; method: cytopathic effect ; value: 5.05
Cc1cc(O)cc(S(=O)(=O)c2cccc(N)c2C#N)c1 ; changes: RT-V106A Y181C ; cells: HeLa + HELA CD4+ ; method: β-galactosidase ; value: 33.3
COC(=O)c1cc2c(c(OC)c1-c1ccc(N(C)C)cc1)OCO2 ; changes: L74V ; strain or isolate: 74V ; cells: C8166 ; method: antigen ; value: 0.8
CC(C)=CCN1c2cc(Cl)cc3[nH]c(=S)n(c23)C[C@@H]1C ; changes: RT-D67N K70R T215Y K219Q L100I ; cells: MT-4 ; value: 2
Nc1nc2c(ncn2[C@H]2CO[C@@H](CO)O2)c(=O)[nH]1 ; changes: RT-M41L D67N M184V L210W T215Y ; strain or isolate: RT M41L 67N 69D 184V 210W 215Y ; value: 1.4
CC(C)CN(C[C@@H](O)[C@H](Cc1ccccc1)NC(=O)O[C@H]1CCOC1)S(=O)(=O)c1ccc(N)cc1 ; changes: L23I E34Q K43I M46I I50L G51A L63P A71V V82A T91A ; strain or isolate: NL4-3 ; cells: MT-4 ; method: p24 / luminescence ; value: 7.1
Cc1cn([C@H]2C[C@H](N=[N+]=[N-])[C@@H](CO)O2)c(=O)[nH]c1=O ; changes: RT-M184V ; strain or isolate: HXB2-D184 (RT-M184V) ; cells: MT-4 ; method: RT activity ; value: 1.8
Cc1ccnc2c1NC(=O)c1cccnc1N2C1CC1 ; changes: RT-Y181C ; strain or isolate: UC38-resistant (RT Y181C) ; cells: CEM + CEM-SS ; method: XTT ; value: 190
CC(C)CN(C[C@@H](O)[C@H](Cc1ccccc1)NC(=O)O[C@H]1CCO[C@H]2OCC[C@H]21)S(=O)(=O)c1ccc2nc(NC3CC3)sc2c1 ; changes: L10I N37D G48V I54V L63P G73C I84V L90M ; strain or isolate: NL4-3 ; cells: MT-4 ; method: p24 / luminescence ; value: 77
Nc1nc(=O)n([C@@H]2CS[C@H](CO)O2)cc1F ; changes: RT-M184V T215Y K219Q ; value: ~20
Cc1cn([C@H]2C=C[C@@H](CO)O2)c(=O)[nH]c1=O ; changes: RT-V75I F77L F116Y Q151M ; strain or isolate: Recombinant ; cells: PBMC ; method: p24 ; value: 0.335
CC(C)=CCN1Cc2cc(Cl)cc3[nH]c(=S)n(c23)C[C@@H]1C ; changes: RT-D67N K70R T215Y K219Q ; strain or isolate: RTMC ; cells: HT4 + HT4 LacZ-1 ; method: plaque count ; value: 1.27
Nc1ccn([C@H]2CC[C@@H](CO)O2)c(=O)n1 ; changes: RT-M184V ; strain or isolate: IIIB BCH-189-resistant (RT M184V) ; cells: MT-4 ; method: p24 ; value: 5.78
O=c1[nH]cnc2c1ncn2[C@H]1CC[C@@H](CO)O1 ; changes: RT-Y181C ; cells: HeLa ; method: β-galactosidase ; value: 1.375
Cc1cn([C@H]2C[C@H](N=[N+]=[N-])[C@@H](CO)O2)c(=O)[nH]c1=O ; changes: RT-P236L ; strain or isolate: IIIB ; cells: CEM + CEM-SS ; method: cytopathic effect / XTT ; value: 0.2
CCc1cc(NCc2nc3c(Cl)ccc(Cl)c3o2)c(=O)[nH]c1C ; changes: RT-P236L ; strain or isolate: HXBE30(RT-P236L) ; cells: MT-4 ; method: antigen ; value: <0.1
CC(C)Oc1ccc(Cc2ccccc2)cc1C(=O)CC(=O)C(=O)O ; changes: INTG-T66I S153Y ; value: 9
Cc1cc(Br)cc(S(=O)(=O)c2cccc(N)c2C#N)c1 ; changes: RT-G190A ; cells: HeLa + HELA CD4+ ; method: β-galactosidase ; value: 2.73
C=C[C@]1(CO)O[C@@H](n2cc(C)c(=O)[nH]c2=O)C[C@@H]1O ; changes: RT-M184V ; cells: HeLa ; method: β-galactosidase ; value: <12.3
COc1cc(C(F)(F)F)cc(S(=O)(=O)c2cccc(N)c2C#N)c1 ; changes: RT-K103N P225H ; cells: HeLa + HELA CD4+ ; method: β-galactosidase ; value: 393
CCN[C@H]1CO[C@@H]2OCC[C@H](OC(=O)N[C@@H](Cc3cccc(OC)c3)[C@H](O)CN(CC(C)C)S(=O)(=O)c3ccc4nc(NC(C)C)sc4c3)[C@@H]21 ; changes: L10F K20T D30N K45I A71V V77I ; strain or isolate: NL4-3 ; cells: MT-4 ; method: p24 / luminescence ; value: 0.9
Nc1nc(=O)n([C@@H]2CO[C@H](CO)S2)cc1F ; changes: RT-M184I ; strain or isolate: HXB2D (M1841I) ; cells: MT-2 ; method: RT activity ; value: 4.09
Cc1ccnc2c1NC(=O)c1cccnc1N2C1CC1 ; changes: RT-V106I ; strain or isolate: NL4-3 (RT V106I) ; cells: CEM + CEM-SS ; method: cytopathic effect / XTT ; value: >100
CCCN(C)C(=O)Oc1nsnc1-c1c(Cl)ccc(N)c1Cl ; changes: RT-V189I ; strain or isolate: IIIB ; cells: MAGI ; method: MTT ; value: 1.63
Nc1nc2c(ncn2[C@H]2CO[C@@H](CO)O2)c(=O)[nH]1 ; changes: RT-K103N V108I ; value: ~0.1
CCOCn1c(Cc2cc(C)cc(C)c2)c(CC)c(=O)[nH]c1=O ; changes: RT-Y188H ; strain or isolate: IIIB HEPT-resistant (RT Y188H) ; cells: CEM ; method: syncytia ; value: 217
C/C=C/CSc1cc(NC(=S)c2ccsc2C)ccc1Cl ; changes: RT-K103N Y181C ; strain or isolate: Pyridinone-resistant (RT Y181C K103N) ; cells: CEM + CEM-SS ; method: cytopathic effect / XTT ; value: >10
CCOCn1c(Sc2ccccc2)c(CC)c(=O)[nH]c1=O ; changes: RT-L100I ; strain or isolate: IIIB BHAP(RT-L100I) ; cells: CEM ; method: syncytia ; value: 6
Cc1cn([C@H]2C[C@H](N=[N+]=[N-])[C@@H](CO)O2)c(=O)[nH]c1=O ; changes: RT-M41L T69ins L74V M184V L210W T215Y ; strain or isolate: 52534-2 NRTI resistant recombinant ; cells: PBMC ; method: RT activity ; value: 719
Cc1cc(S(N)(=O)=O)ccc1NC(=O)COc1ccc(Cl)cc1C(=O)c1cc(Cl)cc(C#N)c1 ; changes: RT-K103N P225H ; strain or isolate: NNRTI-resistant (RT K103N P225H) ; cells: MAGI ; method: β-galactosidase ; value: 1.35
N#Cc1cc2[nH]c3ccccc3c2n(-c2ccc([N+](=O)[O-])cc2)c1=O ; changes: RT-Y188L ; strain or isolate: NNRTI-resistant ; cells: HeLa ; method: luciferase ; value: 0.6
Cc1cn([C@H]2C[C@H](N=[N+]=[N-])[C@@H](CO)O2)c(=O)[nH]c1=O ; changes: RT-D67G ; strain or isolate: HxB2D(RT-D67G) ; cells: CBMC ; method: RT activity ; value: 0.636
C#C[C@]1(CO)O[C@@H](n2cc(C)c(=O)[nH]c2=O)C[C@@H]1O ; changes: RT-M41L T215Y ; strain or isolate: RT-M41L/T215Y ; cells: HeLa ; method: β-galactosidase ; value: 1.19
Cc1cn([C@@H]2O[C@H](CO[Si](C)(C)C(C)(C)C)C3(OS(=O)(=O)C=C3N)[C@H]2O[Si](C)(C)C(C)(C)C)c(=O)n(C)c1=O ; changes: RT-Y188H ; strain or isolate: IIIB HEPT-resistant (RT Y188H) ; cells: CEM ; method: syncytia ; value: ≥1670

Lines come from different laboratories, so protocols vary.